Compound potency records, mixed from different reports. Data source: NIAID ChemDB in PubChem.

All rows: tests in culture

Inhibition is in % at the dose shown (toxicity tests: loss of growth or viability). Rows are shuffled and stem from different studies. MIC50, MIC90 and the like: level of inhibition, or share of isolates inhibited. An empty or dashed field is not shown. ECn: concentration that inhibits the pathogen or its effect by n%.

compound,endpoint,strain,method,organism,tested at,setting,value
NC[C@H]1O[C@H](O[C@H]2[C@H](O)[C@@H](O[C@H]3O[C@H](CO)[C@@H](O)[C@H](N)[C@H]3O)[C@H](N)C[C@@H]2N)[C@H](O)[C@@H](O)[C@@H]1O,MIC,N-475 (HIV-),,Mycobacterium avium intracellulare,,,0.25 µg/mL
N[C@@H]1CONC1=O,MIC,K-10(PYUB180),,Mycobacterium avium paratuberculosis,,,25 µg/mL
CC[C@@H](CO)NCCN[C@@H](CC)CO,MBC,1854-4,,Mycobacterium avium complex,,,15 µg/mL
CO[C@H]1/C=C/O[C@@]2(C)Oc3c(C)c(O)c4c(O)c(c(/C=N/N5CCN(C)CC5)c(O)c4c3C2=O)NC(=O)/C(C)=C\C=C\[C@H](C)[C@H](O)[C@@H](C)[C@@H](O)[C@@H](C)[C@H](OC(C)=O)[C@@H]1C,MIC,A+,,Mycobacterium aurum,,,2 µg/mL
NC(=O)c1cnccn1,inhibition,198 strains,agar,Mycobacterium fortuitum,25 µg/mL,,<1%
CC[C@H]1OC(=O)[C@H](C)[C@@H](O[C@H]2C[C@@](C)(OC)[C@@H](O)[C@H](C)O2)[C@H](C)[C@@H](O[C@@H]2O[C@H](C)C[C@H](N(C)C)[C@H]2O)[C@](C)(OC)C[C@@H](C)C(=O)[C@H](C)[C@@H](O)[C@]1(C)O,MIC,K-10(PYUB180),,Mycobacterium avium paratuberculosis,,,1.25 µg/mL
C[C@H]1COC2(CCN(c3nc(=O)c4cc(C(F)(F)F)cc([N+](=O)[O-])c4s3)CC2)O1,MIC,IMET 10670,broth dilution / turbidity,Mycobacterium vaccae,,,0.002 µg/mL
COc1cc(Cc2cnc(N)nc2N)cc(OC)c1OCCCNc1ccc(S(=O)(=O)c2ccc(N)cc2)cc1,MIC,ATCC 19423,,Mycobacterium ulcerans,,,2 µg/mL
NCC[C@H](O)C(=O)N[C@@H]1C[C@H](N)[C@@H](O[C@H]2O[C@H](CN)[C@@H](O)[C@H](O)[C@H]2O)[C@H](O)[C@H]1O[C@H]1O[C@H](CO)[C@@H](O)[C@H](N)[C@H]1O,MIC,A28315,,Mycobacterium smegmatis,,,0.25 µg/mL
Nc1ccc(C(=O)O)c(O)c1,inhibition,198 strains,agar,Mycobacterium fortuitum,2 µg/mL,,<1%
Nc1ccc(S(=O)(=O)c2ccc(N)cc2)cc1,MBC,Isolate 94-886,,Mycobacterium ulcerans,,,8 µg/mL
C=C1C(=O)N[C@@H](CC(C)C)C(=O)N[C@H](CC(C)C)C(=O)N[C@H](C(=O)O)[C@H](C)C(=O)N[C@H](CCCN=C(N)N)C(=O)N[C@@H](/C=C/C(C)=C/[C@H](C)[C@H](Cc2ccccc2)OC)[C@@H](C)C(=O)N[C@@H](C(=O)O)CCC(=O)N1C,MIC,,resazurin,Mycobacterium chelonae,,,0.84 µM
O=C(O)c1cc(C(F)(F)F)cc2c(=O)nc(N3CCN(CC4CCCCC4)CC3)sc12,MIC99,1999-0888,resazurin,Mycobacterium bolletii,,,>100 µg/mL
CN[C@@H]1[C@H](O[C@H]2[C@H](O[C@H]3[C@H](O)[C@@H](O)[C@H](N=C(N)N)[C@@H](O)[C@@H]3N=C(N)N)O[C@@H](C)[C@]2(O)C=O)O[C@@H](CO)[C@H](O)[C@H]1O,EC50,A+,,Mycobacterium aurum,,,<0.18 µg/mL
Cc1cc(NS(=O)(=O)c2ccc(NC(=O)Nc3ccc(S(=O)(=O)Nc4cc(C)on4)cc3)cc2)no1,MIC100,6509/96 clinical isolate,broth dilution / absorbance,Mycobacterium kansasii,,14 d,4 µM
C[C@H]1COC2(CCN(c3nc(=O)c4cc(C(F)(F)F)cc(C(=O)O)c4s3)CC2)O1,MIC99,ATCC 15483,resazurin,Mycobacterium vaccae,,,>100 µg/mL
CCCc1c2c([nH]c(=O)c1C)C(=O)c1[nH]c(=O)c(C)c(CCC)c1C2=O,MIC90,L948 (ATCC 19977),resazurin / fluorescence,Mycobacterium abscessus,,,>7.5 µg/mL
CCCCCNC(=O)Nc1ccc(S(=O)(=O)Nc2cc(C)on2)cc1,MIC100,235/80,broth dilution / absorbance,Mycobacterium kansasii,,7 d,250 µM
NCC[C@H](O)C(=O)N[C@@H]1C[C@H](N)[C@@H](O[C@H]2O[C@H](CN)[C@@H](O)[C@H](O)[C@H]2O)[C@H](O)[C@H]1O[C@H]1O[C@H](CO)[C@@H](O)[C@H](N)[C@H]1O,MIC,K-10(PYUB180),,Mycobacterium avium paratuberculosis,,,2 µg/mL
CC[C@@H](CO)NCCN[C@@H](CC)CO,MIC,N-481 (HIV-),,Mycobacterium avium intracellulare,,,32 µg/mL
CCCNC(=O)Nc1ccc(S(=O)(=O)Nc2cc(C)on2)cc1,MIC100,6509/96 clinical isolate,broth dilution / absorbance,Mycobacterium kansasii,,7 d,250 µM
CO[C@H]1/C=C/O[C@@]2(C)Oc3c(C)c(O)c4c(O)c(c5c(c4c3C2=O)NC2(CCN(CC(C)C)CC2)N=5)=NC(=O)/C(C)=C\C=C\[C@H](C)[C@H](O)[C@@H](C)[C@@H](O)[C@@H](C)[C@H](OC(C)=O)[C@@H]1C,MIC,K-10(PYUB180),,Mycobacterium avium paratuberculosis,,,0.5 µg/mL
C[C@@H]1CN(c2c(F)c(N)c3c(=O)c(C(=O)O)cn(C4CC4)c3c2F)C[C@H](C)N1,MIC50,37 strains,,Mycoplasma hominis,,,0.032 µg/mL
CCCCCCCCCCNC(=O)Nc1ccc(S(=O)(=O)Nc2cc(C)on2)cc1,MIC100,235/80,broth dilution / absorbance,Mycobacterium kansasii,,14 d,125 µM
CN(C)[C@@H]1C(=O)C(C(N)=O)=C(O)[C@@]2(O)C(=O)C3=C(O)c4c(O)cccc4[C@@](C)(O)[C@H]3C[C@@H]12,MIC50,34 strains,,Mycoplasma hominis,,,1 µg/mL
NNC(=O)c1ccncc1,MIC100,235/80,broth dilution / absorbance,Mycobacterium kansasii,,7 d,>250 µM

For reference, 3 entries again:

compound | endpoint | strain | method | organism | tested at | setting | value
C[C@H]1COC2(CCN(c3nc(=O)c4cc(C(F)(F)F)cc([N+](=O)[O-])c4s3)CC2)O1 | MIC | IMET 10670 | broth dilution / turbidity | Mycobacterium vaccae |  |  | 0.002 µg/mL
CC[C@@H](CO)NCCN[C@@H](CC)CO | MIC | N-481 (HIV-) |  | Mycobacterium avium intracellulare |  |  | 32 µg/mL
C[C@@H]1CN(c2c(F)c(N)c3c(=O)c(C(=O)O)cn(C4CC4)c3c2F)C[C@H](C)N1 | MIC50 | 37 strains |  | Mycoplasma hominis |  |  | 0.032 µg/mL